Measured values from several laboratories, pooled; numbers as filed in NIAID ChemDB.

Common to all: growth or infection tests; organism: Candida parapsilosis

Blank or dashed fields: not listed here.

CCC(C)n1ncn(-c2ccc(N3CCN(c4ccc(OC[C@H]5CO[C@](Cn6cncn6)(c6ccc(Cl)cc6Cl)O5)cc4)CC3)cc2)c1=O ; method: broth dilution ; read-out: MIC90 ; result: 0.13 µg/mL
Clc1ccc(C(c2ccccc2)n2cncn2)cc1 ; method: agar ; read-out: MIC90 ; result: 256 µg/mL
CC(C)(O)c1cn(-c2ccc(Cl)cc2)nn1 ; strain: URM 4984 ; method: broth dilution ; read-out: MIC ; result: 128 µg/mL
CCCCCOc1ccc(-c2cc(-c3ccc(C(=O)N[C@H]4C[C@@H](O)[C@@H](O)NC(=O)[C@@H]5[C@@H](O)[C@@H](C)CN5C(=O)[C@H]([C@H](O)CC(N)=O)NC(=O)[C@H]([C@H](O)[C@@H](O)c5ccc(O)c(OS(=O)(=O)O)c5)NC(=O)[C@@H]5C[C@@H](O)CN5C(=O)[C@H]([C@@H](C)O)NC4=O)cc3)no2)cc1 ; strain: RC-601 ; method: broth dilution ; read-out: EC50 ; result: 0.5 µg/mL
CCOc1ccc2nc3cc(N=C4NC(=O)/C(=C\c5ccc([N+](=O)[O-])o5)S4)ccc3c(N)c2c1 ; method: broth dilution ; read-out: MFC ; result: 125 µg/mL
CCC(C)CC(C)CCCCCCCCC(=O)N[C@H]1C[C@@H](O)[C@H](NCCN)NC(=O)[C@@H]2[C@@H](O)CCN2C(=O)[C@H]([C@H](O)CCN)NC(=O)[C@H]([C@H](O)[C@@H](O)c2ccc(O)cc2)NC(=O)[C@@H]2C[C@@H](O)CN2C(=O)[C@H]([C@@H](C)O)NC1=O ; method: broth dilution ; read-out: MIC90 ; result: 16 µg/mL
C[C@H]1[C@H](O)[C@@H](C)/C=C/C=C/C=C/C=C/C=C/C=C/C=C/[C@H](O[C@@H]2O[C@H](C)[C@@H](O)[C@H](N)[C@@H]2O)C[C@@H]2O[C@](O)(C[C@@H](O)C[C@@H](O)CC[C@H](O)[C@@H](O)C[C@@H](O)CC(=O)O[C@H]1C)C[C@H](O)[C@H]2C(=O)O ; strain: Cp2 ; method: agar diffusion ; read-out: zone ; tested at: 100 µg/disc ; result: 26 mm
O=C(/C=C/c1ccccc1Cl)OC1CCN(CC(O)(Cn2cncn2)c2ccc(F)cc2F)CC1 ; strain: 0306392 ; method: broth dilution ; read-out: MIC80 ; result: 0.498 µM
C=CCc1ccc(OC)c(OC)c1 ; strain: 2615 ; method: turbidity ; read-out: MIC90 ; result: 340 µg/mL
O=C(O)C(Cc1ccccc1)N1C(=O)CSC1c1c(Cl)cccc1Cl ; method: broth dilution ; read-out: EC50 ; result: 13.54 µM
O=C(/C=C/c1ccc(Br)cc1)OC1CCN(CC(O)(Cn2cncn2)c2ccc(F)cc2F)CC1 ; strain: 0306392 ; method: broth dilution ; read-out: MIC80 ; result: 0.458 µM
O=C(CCn1ccnc1)c1ccc(-c2ccccc2)cc1 ; strain: RTCC 1018 ; method: broth dilution ; read-out: MIC ; result: 64 µg/mL
CC(C(=O)O)N1C(=O)CSC1c1ccccn1 ; method: broth dilution ; read-out: EC50 ; result: 20.22 µM
C[C@@H]1CC(=O)N(c2ccc(Br)cc2)C1=O ; strain: CCC 124-2000 ; method: broth dilution / turbidity ; read-out: MIC ; result: 62.5 µg/mL
Cc1ccc(-n2cc(C(C)(C)O)nn2)cc1C ; strain: URM 4607 ; method: broth dilution ; read-out: inhibition ; tested at: 2048 µg/mL ; result: 0%
COc1ccccc1C1SCCC(=O)N1C(Cc1ccccc1)C(=O)O ; method: broth dilution ; read-out: EC50 ; result: 78.12 µM
Cc1ccc(C(O)c2cccc(C(O)CCn3ccnc3)c2)cc1 ; strain: RTCC 1018 ; method: broth dilution ; read-out: MIC ; result: >64 µg/mL
CC(=O)OC1CCN(CC(O)(Cn2cncn2)c2ccc(F)cc2F)CC1 ; strain: 0306392 ; method: broth dilution ; read-out: MIC80 ; result: 2.63 µM
COc1ccccc1C1SCC(=O)N1C(Cc1ccccc1)C(=O)O ; method: broth dilution ; read-out: EC50 ; result: 79.55 µM
O/N=C\c1ccccc1 ; read-out: MIC100 ; result: 4130 µM
CCOC(=O)CN(CCCOc1ccccc1)CC(O)(Cn1cncn1)c1ccc(F)cc1F ; read-out: EC80 ; result: >64 µg/mL
Cc1ccc(-c2c3c(N)c4c(nc3nc3c2c(C)nn3-c2ccccc2)CCCC4)cc1 ; strain: CCC 124 ; method: broth dilution / absorbance ; read-out: MIC100 ; result: 31.2 µg/mL
O=C(O)C(Cc1ccccc1)N1C(=O)CSC1c1ccc(Cl)cc1 ; method: broth dilution ; read-out: EC50 ; result: 56.17 µM
Clc1ccc(C(c2ccccc2)n2ccnc2)cc1 ; method: agar ; read-out: MIC90 ; result: 8 µg/mL
CCCN(CCCOc1ccc(Br)cc1)CC(O)(Cn1cncn1)c1ccc(F)cc1F ; read-out: EC80 ; result: >64 µg/mL
CC(C)(O)c1cn(-c2ccc3ccccc3c2)nn1 ; strain: URM 3627 ; method: broth dilution ; read-out: inhibition ; tested at: 2048 µg/mL ; result: 0%
OC(CCn1ccnc1)c1cccc(C(O)c2ccc(Cl)cc2)c1 ; strain: RTCC 1079 ; method: broth dilution ; read-out: MIC ; result: >64 µg/mL
O/N=C/c1ccc(O)cc1 ; read-out: MIC100 ; result: >7290 µM
Nc1ncccc1-c1cc(Cc2ccc(COc3ccccn3)cc2)no1 ; method: broth dilution ; read-out: MIC50 ; result: <0.008 µg/mL
CC1CC(=O)N(CCc2ccccc2)C1=O ; strain: CCC 124-2000 ; method: broth dilution / turbidity ; read-out: MIC ; result: 125 µg/mL
COc1ccccc1C1SCC(=O)N1CC(=O)O ; method: broth dilution ; read-out: EC50 ; result: 79.49 µM
O=C1c2ccccc2CC1Cn1ccnc1 ; strain: RTCC 1079 ; method: broth dilution ; read-out: MIC ; result: 4 µg/mL
Clc1ccc(C(c2ccccc2)n2cnc3ccccc32)cc1 ; method: broth dilution ; read-out: MFC ; result: >256 µg/mL
CC1SC(c2ccccn2)N(C(C)C(=O)O)C1=O ; method: broth dilution ; read-out: EC50 ; result: 98.25 µM
C=CC(C)(C)c1cc(C2CC(=O)c3c(cc(O)c(CC=C(C)C)c3O)O2)c(O)cc1O ; strain: hemoculture isolate 35416 ; method: agar diffusion / agar ; read-out: zone ; tested at: 2 mg/mL ; result: 11 mm
C[C@@H](c1ncncc1F)[C@](O)(Cn1cncn1)c1ccc(F)cc1F ; strain: 0306392 ; method: broth dilution ; read-out: MIC80 ; result: 0.045 µM
C/C(=N/O)C(Cl)(Cl)Cl ; read-out: MIC100 ; result: 6450 µM
CC[C@@H]([C@H](C)O)n1ncn(-c2ccc(N3CCN(c4ccc(OC[C@@H]5CO[C@@](Cn6cncn6)(c6ccc(F)cc6F)C5)cc4)CC3)cc2)c1=O ; method: broth dilution ; read-out: MIC90 ; result: 0.12 µg/mL
CC(C)C(=O)OC1CCN(CC(O)(Cn2cncn2)c2ccc(F)cc2F)CC1 ; strain: 0306392 ; method: broth dilution ; read-out: MIC80 ; result: 0.612 µM
Cc1ccc(-c2c3c(N)c4c(nc3nc3c2c(C)nn3-c2ccccc2)CCCCC4)cc1 ; strain: CCC 124 ; method: broth dilution / absorbance ; read-out: MIC100 ; result: 125 µg/mL
O=C(c1ccccc1)C(c1ccccc1)n1cnc2ccccc21 ; method: broth dilution ; read-out: MFC ; result: 128 µg/mL
CCCCCCCCCCCCC(=O)OC1CCN(CC(O)(Cn2cncn2)c2ccc(F)cc2F)CC1 ; strain: 0306392 ; method: broth dilution ; read-out: MIC80 ; result: 1.922 µM
CC1CC(=O)N(Cc2ccccc2)C1=O ; strain: CCC 124-2000 ; method: broth dilution / turbidity ; read-out: MIC ; result: 125 µg/mL
O=C1C(=O)c2ccccc2C2=C1CC(CI)O2 ; strain: Clinical isolate ; method: broth dilution ; read-out: MIC ; result: 16 µg/mL
C[C@@H]1CC(=O)N(CCCCc2ccccc2)C1=O ; strain: CCC 124-2000 ; method: broth dilution / turbidity ; read-out: MIC ; result: 62.5 µg/mL
CCCCCCCCCCC(=O)OC1CCN(CC(O)(Cn2cncn2)c2ccc(F)cc2F)CC1 ; strain: 0306392 ; method: broth dilution ; read-out: MIC80 ; result: 2.031 µM
O=[N+]([O-])c1cccc(/C=N\O)c1 ; read-out: MIC100 ; result: 6020 µM

Again, the opening 5 rows:

SMILES | strain | method | read-out | tested at | result
CCC(C)n1ncn(-c2ccc(N3CCN(c4ccc(OC[C@H]5CO[C@](Cn6cncn6)(c6ccc(Cl)cc6Cl)O5)cc4)CC3)cc2)c1=O |  | broth dilution | MIC90 |  | 0.13 µg/mL
Clc1ccc(C(c2ccccc2)n2cncn2)cc1 |  | agar | MIC90 |  | 256 µg/mL
CC(C)(O)c1cn(-c2ccc(Cl)cc2)nn1 | URM 4984 | broth dilution | MIC |  | 128 µg/mL
CCCCCOc1ccc(-c2cc(-c3ccc(C(=O)N[C@H]4C[C@@H](O)[C@@H](O)NC(=O)[C@@H]5[C@@H](O)[C@@H](C)CN5C(=O)[C@H]([C@H](O)CC(N)=O)NC(=O)[C@H]([C@H](O)[C@@H](O)c5ccc(O)c(OS(=O)(=O)O)c5)NC(=O)[C@@H]5C[C@@H](O)CN5C(=O)[C@H]([C@@H](C)O)NC4=O)cc3)no2)cc1 | RC-601 | broth dilution | EC50 |  | 0.5 µg/mL
CCOc1ccc2nc3cc(N=C4NC(=O)/C(=C\c5ccc([N+](=O)[O-])o5)S4)ccc3c(N)c2c1 |  | broth dilution | MFC |  | 125 µg/mL

A number after MIC or MFC names an inhibition level or a share of isolates. Zone: diameter of growth inhibition. Rows are shuffled and stem from different studies. Inhibition is in % at the dose shown (toxicity tests: loss of growth or viability). ECn is the concentration giving n% inhibition of infection, replication or growth.